A mixed list of measured activities; the numbers were collected in NIAID ChemDB.

Shared fields: tests in culture

Percent inhibition refers to the dose given; in toxicity tests it is the harm to the cells. MIC50, MIC90 and the like: level of inhibition, or share of isolates inhibited. Conditions beyond the fields shown may differ between rows. ECn: concentration that inhibits the pathogen or its effect by n%. An empty or dashed field is not shown.

SMILES | agent | method | strain | mutations | conditions | endpoint | dose | result
CCCCNC(=O)Nc1ccc(S(=O)(=O)Nc2cc(C)on2)cc1 | Mycobacterium kansasii | broth dilution / absorbance | 6509/96 clinical isolate |  | 14 d | MIC100 |  | 500 µM
CC#CCCC | Mycobacterium bovis BCG | resazurin | 1173P2 |  | 24 h | MIC |  | 3.87 µg/mL
CC1CN(c2c(F)cc3c(=O)c(C(=O)O)cn(C4CC4)c3c2F)CC(C)N1 | Mycobacterium smegmatis |  | KD2003 (GYRA D95G) |  |  | MIC99 |  | 1.2 µg/mL
COc1cc(Cc2cnc(N)nc2N)cc(OC)c1OC | Mycobacterium ulcerans |  | Isolate 94-886 |  |  | MBC |  | >32 µg/mL
C#CCOC(=O)CCCCCC | Mycobacterium bovis BCG | resazurin | 1173P2 |  | 48 h | MIC |  | 125 µg/mL
CNc1ccc2oc(C[C@@H]3OC4(CC[C@@H]3C)O[C@H](C(C)C(=O)c3ccc[nH]3)[C@H](C)C[C@H]4C)nc2c1C(=O)O | Mycobacterium aurum | resazurin |  | G457A |  | MIC |  | 0.64 µg/mL
COc1c(N2CCN(C(C)C)CC2)c(F)cc2c(=O)c(C(=O)O)cn(C3CC3)c12 | Mycobacterium smegmatis |  | KD2012 (GYRA G89A) |  |  | MIC99 |  | 0.85 µg/mL
NNC(=O)c1ccncc1 | Mycobacterium avium |  | ATCC 25291 |  |  | Mean MIC |  | >32 µg/mL
CC(C)N1CCN(c2c(F)cc3c(=O)c(C(=O)O)cn(C4CC4)c3c2F)CC1 | Mycobacterium smegmatis |  | KD1991 (GYRA D95Y) |  |  | MIC99 |  | 5.8 µg/mL
N[C@@H]1CONC1=O | Mycobacterium avium |  | ATCC 25291 |  |  | Mean MIC |  | 37.5 µg/mL
Nc1ccc(C(=O)O)c(O)c1 | Mycobacterium avium complex | agar | 713 strains |  |  | EC50 |  | >2 µg/mL
CC(C)(C)c1ccc(C=O)cc1 | Mycobacterium fortuitum |  |  |  |  | EC50 |  | >1000 µM
CC[C@H]1OC(=O)[C@H](C)[C@@H](O[C@H]2C[C@@](C)(OC)[C@@H](O)[C@H](C)O2)[C@H](C)[C@@H](O[C@@H]2O[C@H](C)C[C@H](N(C)C)[C@H]2O)[C@](C)(OC)C[C@@H](C)C(=O)[C@H](C)[C@@H](O)[C@]1(C)O | Mycobacterium avium |  | ATCC 25291 |  |  | Mean MIC |  | 3.25 µg/mL
N/C(=N\N=C\c1cccc2ccccc12)c1ccccn1 | Mycobacterium fortuitum |  |  |  |  | inhibition | 1000 µM | 17.1%
NCC[C@H](O)C(=O)N[C@@H]1C[C@H](N)[C@@H](O[C@H]2O[C@H](CN)[C@@H](O)[C@H](O)[C@H]2O)[C@H](O)[C@H]1O[C@H]1O[C@H](CO)[C@@H](O)[C@H](N)[C@H]1O | Mycobacterium avium |  | ATCC 25291 |  |  | Median MIC |  | 5 µg/mL
O=C(O)c1cn(C2CC2)c2c(F)c(N3CCNCC3)c(F)cc2c1=O | Mycobacterium smegmatis |  | KD1998 (GYRA D95N) |  |  | MIC99 |  | 1.3 µg/mL
CN(C)[C@@H]1C(=O)C(C(N)=O)=C(O)[C@@]2(O)C(=O)C3=C(O)c4c(O)cccc4[C@@](C)(O)[C@H]3C[C@@H]12 | Mycobacterium chelonae | broth dilution |  |  |  | MIC50 |  | >128 µg/mL
CCNCC1CCN(c2c(F)cc3c(=O)c(C(=O)O)cn(C4(C)CC4)c3c2F)C1 | Mycobacterium avium complex |  | 14 strains |  |  | MIC50 |  | 8 µg/mL
CN[C@@H]1[C@@H](O)[C@@H](O[C@@H]2[C@@H](O)[C@H](O[C@H]3O[C@H](CN)CC[C@H]3N)[C@@H](N)C[C@H]2N)OC[C@]1(C)O | Mycobacterium avium |  | ATCC 25291 |  |  | Median MIC |  | 4 µg/mL
CO[C@H]1/C=C/O[C@@]2(C)Oc3c(C)c(O)c4c(O)c(c(N5CCN(Cc6c(C)cc(C)cc6C)CC5)c(O)c4c3C2=O)NC(=O)/C(C)=C\C=C\[C@H](C)[C@H](O)[C@@H](C)[C@@H](O)[C@@H](C)[C@H](OC(C)=O)[C@@H]1C | Mycobacterium avium |  | 211-5 |  |  | MBC |  | >16 µg/mL
C#CCCCCCCCC | Mycobacterium bovis BCG | resazurin | 1173P2 |  | 24 h | MIC |  | 62.5 µg/mL
CC(C)N=c1cc2n(-c3ccc(Cl)cc3)c3ccccc3nc-2cc1Nc1ccc(Cl)cc1 | Mycobacterium avium complex | agar | 14 strains |  |  | inhibition | 1 µg/mL | 86%
Cc1ccc(-n2cc(C(=O)O)c(=O)c3cc(F)c(N4CCNCC4)cc32)cc1 | Mycobacterium avium complex |  | 14 strains |  |  | MIC50 |  | ≥32 µg/mL
CC1CN(c2cc3c(cc2F)c(=O)c(C(=O)O)cn3C2CC2)CC(C)N1 | Mycobacterium smegmatis |  | KD1987 (GYRA A91V) |  |  | MIC99 |  | 0.98 µg/mL
NC[C@@H]1O[C@H](O[C@H]2[C@@H](O)[C@H](O[C@@H]3[C@@H](O)[C@H](N)C[C@H](N)[C@H]3O[C@H]3O[C@H](CO)[C@@H](O)[C@H](O)[C@H]3N)O[C@@H]2CO)[C@H](N)[C@@H](O)[C@@H]1O | Mycobacterium avium complex |  | 545/HIV+ |  |  | MIC |  | 1.56 µg/mL
CC[C@@H](CO)NCCN[C@@H](CC)CO | Mycobacterium avium complex |  | 2212 |  |  | MBC |  | 30 µg/mL
NC1CC2CCC(C1)N2c1nc2c(cc1F)c(=O)c(C(=O)O)cn2C1CC1 | Mycobacterium avium complex |  | 14 strains |  |  | MIC50 |  | 4 µg/mL
Cc1cc(NS(=O)(=O)c2ccc(NC(=O)N(C(C)C)C(C)C)cc2)no1 | Mycobacterium kansasii | broth dilution / absorbance | 6509/96 clinical isolate |  | 14 d | MIC100 |  | 500 µM
CC(C)N=c1cc2n(-c3ccc(Cl)cc3)c3ccccc3nc-2cc1Nc1ccc(Cl)cc1 | Mycobacterium avium complex |  | CH-3/HIV+ |  |  | MIC |  | 0.5 µg/mL
COc1nc2ccc(Br)cc2cc1[C@@H](c1ccccc1)[C@@](O)(CCN(C)C)c1cccc2ccccc12 | Mycobacterium aurum | resazurin |  |  |  | MIC |  | 0.01 µg/mL
CCCCCCCNC(=O)Nc1ccc(S(=O)(=O)Nc2cc(C)on2)cc1 | Mycobacterium kansasii | broth dilution / absorbance | 235/80 |  | 7 d | MIC100 |  | 4 µM
CC(=O)O[C@H]1C[C@@]2(C)[C@@H](C[C@@H](O)[C@H]3[C@@]4(C)CC[C@@H](O)[C@@H](C)[C@@H]4CC[C@@]32C)/C1=C(\CCC=C(C)C)C(=O)O | Mycobacterium avium |  | ATCC 25291 |  |  | Mean MIC |  | >24 µg/mL
N/C(=N\N=C\c1ccccc1Sc1ccc(Cl)cc1)c1ccccn1 | Mycobacterium fortuitum |  |  |  |  | inhibition | 100 µM | 3.7%
CC(C)(C)n1cc(C(=O)O)c(=O)c2cc(F)c(N3CCNCC3)cc21 | Mycobacterium avium complex |  | 14 strains |  |  | MIC90 |  | 4 µg/mL
Nc1ccc(C(=O)O)c(O)c1 | Mycobacterium avium |  | ATCC 25291 |  |  | Mean MIC |  | 80 µg/mL
CO[C@H]1/C=C/O[C@@]2(C)Oc3c(C)c(O)c4c(O)c(c5c(c4c3C2=O)NC2(CCN(CC(C)C)CC2)N=5)=NC(=O)/C(C)=C\C=C\[C@H](C)[C@H](O)[C@@H](C)[C@@H](O)[C@@H](C)[C@H](OC(C)=O)[C@@H]1C | Mycobacterium avium complex |  | 230 isolates |  |  | MIC50 |  | 0.14 µg/mL
CC1CN(c2c(F)cc3c(=O)c(C(=O)O)cn(C4CC4)c3c2F)CCN1 | Mycobacterium smegmatis |  | KD2003 (GYRA D95G) |  |  | MIC99 |  | 1.2 µg/mL
CCOc1cc(Cc2cnc(N)nc2N)cc(OCC)c1-n1cccc1 | Mycobacterium ulcerans |  | Isolate 5155 |  |  | MIC |  | 0.5 µg/mL
CC(C)N=c1cc2n(-c3ccc(Cl)cc3)c3ccccc3nc-2cc1Nc1ccc(Cl)cc1 | Mycobacterium avium |  | ATCC 25291 |  |  | Mean MIC |  | 0.38 µg/mL
NC(=O)c1cnccn1 | Mycobacterium avium complex | agar | 155 strains |  |  | inhibition | 50 µg/mL | 0%
C[C@@H]1CN(c2c(F)c(N)c3c(=O)c(C(=O)O)cn(C4CC4)c3c2F)C[C@H](C)N1 | Mycobacterium avium |  | ATCC 25291 |  |  | Mean MIC |  | 3 µg/mL
CC(=O)OC(C)=O | Mycobacterium bovis BCG | resazurin | 1173P2 |  | 48 h | MIC |  | 500 µg/mL
CC1CN(c2cc3c(cc2F)c(=O)c(C(=O)O)cn3C2CC2)CCN1 | Mycobacterium smegmatis |  | KD1998 (GYRA D95N) |  |  | MIC99 |  | 3.3 µg/mL
NNC(=O)c1ccncc1 | Mycobacterium kansasii | broth dilution / absorbance | 235/80 |  | 21 d | MIC100 |  | >250 µM
C[C@@H]1CN(c2c(F)c(N)c3c(=O)c(C(=O)O)cn(C4CC4)c3c2F)C[C@H](C)N1 | Mycobacterium avium complex | broth dilution | 14 |  |  | MIC |  | 1 µg/mL
O=C(OC(=O)c1ccccc1)c1ccccc1 | Mycobacterium bovis BCG | resazurin | 1173P2 |  | 24 h | MIC |  | 125 µg/mL
CCC1CN(c2cc3c(cc2F)c(=O)c(C(=O)O)cn3C2CC2)CCN1 | Mycobacterium avium complex |  | 14 strains |  |  | MIC50 |  | 2 µg/mL
N/C(=N\N=C\c1ccccn1)c1ccccn1 | Mycobacterium fortuitum |  |  |  |  | inhibition | 1000 µM | 1.3%
CCCCCCCC(=O)OC(=O)CCCCCC | Mycobacterium bovis BCG | resazurin | 1173P2 |  | 48 h | MIC |  | 500 µg/mL
CCC1CN(c2c(F)cc3c(=O)c(C(=O)O)cn(C4CC4)c3c2F)CCN1 | Mycobacterium smegmatis |  | KD1990 (GYRA D95A) |  |  | MIC99 |  | 0.67 µg/mL
O=C(O)c1cn(C2CC2)c2nc(N3CCNCC3)c(F)cc2c1=O | Mycobacterium avium complex |  | 14 strains |  |  | MIC90 |  | 8 µg/mL
CCC1CN(c2c(F)cc3c(=O)c(C(=O)O)cn(C4CC4)c3c2OC)CCN1 | Mycobacterium smegmatis |  | KD1163 (GRYA+) |  |  | MIC99 |  | 0.029 µg/mL
CN(C)c1cc(NC(=O)CNC(C)(C)C)c(O)c2c1C[C@H]1C[C@H]3[C@H](N(C)C)C(=O)C(C(N)=O)=C(O)[C@@]3(O)C(=O)C1=C2O | Mycobacterium massiliense | broth dilution | X21 |  |  | MIC |  | 1 µg/mL
COC(=O)C#CC(=O)OC | Mycobacterium bovis BCG | resazurin | 1173P2 |  | 48 h | MIC |  | 7.75 µg/mL
Cc1cc(NS(=O)(=O)c2ccc(NC(=O)C(=O)Nc3ccc(S(=O)(=O)Nc4cc(C)on4)cc3)cc2)no1 | Mycobacterium kansasii | broth dilution / absorbance | 6509/96 clinical isolate |  | 21 d | MIC100 |  | 8 µM

Repeating the final 5 entries:

SMILES	agent	method	strain	mutations	conditions	endpoint	dose	result
O=C(O)c1cn(C2CC2)c2nc(N3CCNCC3)c(F)cc2c1=O	Mycobacterium avium complex		14 strains			MIC90		8 µg/mL
CCC1CN(c2c(F)cc3c(=O)c(C(=O)O)cn(C4CC4)c3c2OC)CCN1	Mycobacterium smegmatis		KD1163 (GRYA+)			MIC99		0.029 µg/mL
CN(C)c1cc(NC(=O)CNC(C)(C)C)c(O)c2c1C[C@H]1C[C@H]3[C@H](N(C)C)C(=O)C(C(N)=O)=C(O)[C@@]3(O)C(=O)C1=C2O	Mycobacterium massiliense	broth dilution	X21			MIC		1 µg/mL
COC(=O)C#CC(=O)OC	Mycobacterium bovis BCG	resazurin	1173P2		48 h	MIC		7.75 µg/mL
Cc1cc(NS(=O)(=O)c2ccc(NC(=O)C(=O)Nc3ccc(S(=O)(=O)Nc4cc(C)on4)cc3)cc2)no1	Mycobacterium kansasii	broth dilution / absorbance	6509/96 clinical isolate		21 d	MIC100		8 µM